Measured values from several laboratories, pooled; numbers as filed in NIAID ChemDB.

Shared fields: tests in culture; organism: Mycobacterium smegmatis

Neighbouring rows are from separate reports.

SMILES	measure	method	strain or isolate	dose	value
CC1CN(c2cc3c(cc2F)c(=O)c(C(=O)O)cn3C2CC2)CC(C)N1	MIC99	-	KD2003 (GYRA D95G)	-	3 µg/mL
Cc1c(N2CCC(C(C)(C)N)C2)c(F)cn2c(=O)c(C(=O)O)cc(C3CC3)c12	MIC	-	ATCC114	-	0.02 µg/mL
CC(C)N1CCN(c2cc3c(cc2F)c(=O)c(C(=O)O)cn3C2CC2)CC1	MIC99	-	KD2003 (GYRA D95G)	-	4.3 µg/mL
Cc1nn(-c2ccccc2)c2c1C(c1cn(-c3ccccc3)nc1-c1ccc(F)cc1)C1=C(NC(C)(c3cc(O)ccc3Cl)NC1=O)O2	zone	agar diffusion / agar	NCIM 5138	1 mg/mL	3.2 mm
Cc1c(N2C[C@@H]3C[C@H]2CN3)c(F)cn2c(=O)c(C(=O)O)cc(C3CC3)c12	MIC	-	ATCC114	-	0.2 µg/mL
C[C@H]1NCc2cc(-c3ccc4c(=O)c(C(=O)O)cn(C5CC5)c4c3OC(F)F)ccc21	MIC	-	A9826	-	0.06 µg/mL
COc1c(N2CCN(C(C)C)CC2)c(F)cc2c(=O)c(C(=O)O)cn(C3CC3)c12	MIC99	-	KD1998 (GYRA D95N)	-	4.1 µg/mL
Cc1c(N2CCC(N(C)C)C2)c(F)cn2c(=O)c(C(=O)O)cc(C3CC3)c12	MIC	-	ATCC114	-	0.39 µg/mL
C[C@H]1[C@H](O)[C@@H](C)/C=C/C=C/C=C/C=C/C=C/C=C/C=C/[C@H](O[C@@H]2O[C@H](C)[C@@H](O)[C@H](N)[C@@H]2O)C[C@@H]2O[C@](O)(C[C@@H](O)C[C@@H](O)CC[C@H](O)[C@@H](O)C[C@@H](O)CC(=O)O[C@H]1C)C[C@H](O)[C@H]2C(=O)O	inhibition	agar	ATCC 607	100 µg/mL	100%
CC(C)C[C@H](NC(=O)[C@H](Cc1ccccc1)NC(=O)c1cnccn1)B(O)O	inhibition	turbidity	-	30 µM	90%
CN(C)[C@@H]1C(=O)C(C(N)=O)=C(O)[C@@]2(O)C(=O)C3=C(O)c4c(O)cccc4[C@@](C)(O)[C@H]3C[C@@H]12	MIC	-	MC^2 155 (CCCP)	-	0.5 µg/mL
O=C(O)c1cn(C2CC2)c2c(F)c(N3CCNCC3)c(F)cc2c1=O	MIC99	-	KD1163 (GRYA+)	-	0.044 µg/mL
Cc1nn(-c2ccccc2)c2c1C(c1cn(-c3ccccc3)nc1-c1ccc(F)cc1)C1=C(NC(C)(c3cc(O)cc(O)c3)NC1=O)O2	zone	agar diffusion / agar	NCIM 5138	1 mg/mL	6.5 mm
CC(/C=C/[C@@]1(C)[C@H](C)CCC(=O)[C@@H]1C)=C\Cc1c(O)c(Cl)c(C)c(C=O)c1O	zone	agar diffusion	ATCC 607	10 µg/disc	7 mm
Cc1nn(-c2ccccc2)c2c1C(c1cn(-c3ccccc3)nc1-c1ccc(Cl)cc1)C1=C(NC(C)(c3cc(O)cc(O)c3)NC1=O)O2	zone	agar diffusion / agar	NCIM 5138	0.5 mg/mL	1.9 mm
Cc1c(N2CC[C@@H]([C@@H](C)N)C2)c(F)cn2c(=O)c(C(=O)O)cc(C3CC3)c12.Cl	MIC	-	ATCC114	-	0.002 µg/mL
CC1CN(c2c(F)cc3c(=O)c(C(=O)O)cn(C4CC4)c3c2F)CC(C)N1	MIC99	-	KD2003 (GYRA D95G)	-	1.2 µg/mL
CCCN(CCC)C(=O)c1cc(C)cc(C(=O)N[C@@H](Cc2ccccc2)[C@H](O)CNCc2cccc(I)c2)c1	zone	agar diffusion	ATCC 19420	100 µg/disc	15 mm
CC1CN(c2cc3c(cc2F)c(=O)c(C(=O)O)cn3C2CC2)CCN1	MIC99	-	KD1998 (GYRA D95N)	-	3.3 µg/mL
Cc1c(N2CC(N)C2)c(F)cn2c(=O)c(C(=O)O)cc(C3CC3)c12.Cl	MIC	-	ATCC114	-	0.78 µg/mL
CCCCCCCCCCCCCCCC[N+](C)(C)CC	MIC	-	PSB51 LFR (CCCP)	-	2 µg/mL
Cc1c(N2C[C@@H](C)N[C@@H](C)C2)c(F)cn2c(=O)c(C(=O)O)cc(C3CC3)c12.Cl	MIC	-	ATCC114	-	0.2 µg/mL
CCC1CN(c2c(F)cc3c(=O)c(C(=O)O)cn(C4CC4)c3c2F)CCN1	MIC99	-	KD2012 (GYRA G89A)	-	0.37 µg/mL
Cc1c(N2CCC(C)(N)C2)c(F)cn2c(=O)c(C(=O)O)cc(C3CC3)c12.Cl	MIC	-	ATCC114	-	0.1 µg/mL
CCCN(CCC)C(=O)c1cc(C)cc(C(=O)N[C@@H]([C@@H](O)CNCc2cccc(I)c2)C(F)(F)c2ccccc2)c1	zone	agar diffusion	ATCC 19420	100 µg/disc	0 mm
CC1CN(c2c(F)cc3c(=O)c(C(=O)O)cn(C4CC4)c3c2F)CCN1	MIC99	-	KD1987 (GYRA A91V)	-	0.46 µg/mL
Cc1c(N2C[C@@H](N)[C@H](C(F)(F)F)C2)c(F)cn2c(=O)c(C(=O)O)cc(C3CC3)c12.Cl	MIC	-	ATCC114	-	0.2 µg/mL

For reference, 3 entries again:

SMILES | measure | method | strain or isolate | dose | value
CCC1CN(c2c(F)cc3c(=O)c(C(=O)O)cn(C4CC4)c3c2F)CCN1 | MIC99 | - | KD2012 (GYRA G89A) | - | 0.37 µg/mL
CC(/C=C/[C@@]1(C)[C@H](C)CCC(=O)[C@@H]1C)=C\Cc1c(O)c(Cl)c(C)c(C=O)c1O | zone | agar diffusion | ATCC 607 | 10 µg/disc | 7 mm
Cc1c(N2C[C@@H]3C[C@H]2CN3)c(F)cn2c(=O)c(C(=O)O)cc(C3CC3)c12 | MIC | - | ATCC114 | - | 0.2 µg/mL

Zones are inhibition diameters on agar. Blank or dashed fields: not listed here. Percent inhibition refers to the dose given; in toxicity tests it is the harm to the cells. A number after MIC or MFC names an inhibition level or a share of isolates.